# Measured values as given in PMC6504873, “High-throughput screening of the Plasmodium falciparum cGMP-dependent protein kinase identified a thiazole scaffold which kills erythrocytic and sexual stage parasites” (Scientific Reports, 2019).
# By UniProt entry, the sequences of proteins in these tests, tags left out. Residues count along the entry.
# UniProt Q8I719, whole entry: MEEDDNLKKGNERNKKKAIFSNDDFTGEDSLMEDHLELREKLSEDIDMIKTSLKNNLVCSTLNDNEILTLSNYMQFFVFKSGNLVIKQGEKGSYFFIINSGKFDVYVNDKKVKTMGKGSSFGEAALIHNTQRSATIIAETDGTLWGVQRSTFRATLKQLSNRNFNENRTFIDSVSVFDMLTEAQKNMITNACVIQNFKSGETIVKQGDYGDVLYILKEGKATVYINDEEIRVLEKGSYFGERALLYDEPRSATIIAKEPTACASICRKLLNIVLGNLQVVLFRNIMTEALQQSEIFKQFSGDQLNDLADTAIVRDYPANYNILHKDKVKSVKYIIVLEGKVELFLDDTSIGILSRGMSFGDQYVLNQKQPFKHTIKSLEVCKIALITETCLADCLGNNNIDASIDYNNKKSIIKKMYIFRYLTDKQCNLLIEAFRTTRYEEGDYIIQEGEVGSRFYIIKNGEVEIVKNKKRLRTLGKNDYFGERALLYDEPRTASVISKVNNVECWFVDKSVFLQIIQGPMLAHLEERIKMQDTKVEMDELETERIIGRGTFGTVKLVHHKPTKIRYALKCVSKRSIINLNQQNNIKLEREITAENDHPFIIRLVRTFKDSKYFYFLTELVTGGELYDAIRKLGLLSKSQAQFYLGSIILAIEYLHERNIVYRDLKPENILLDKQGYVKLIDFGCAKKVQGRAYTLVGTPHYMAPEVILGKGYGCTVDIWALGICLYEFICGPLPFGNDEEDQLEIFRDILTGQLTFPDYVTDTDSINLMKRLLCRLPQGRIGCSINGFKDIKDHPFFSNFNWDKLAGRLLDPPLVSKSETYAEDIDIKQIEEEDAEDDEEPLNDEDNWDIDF
# UniProt Q8I719, whole entry T618Q: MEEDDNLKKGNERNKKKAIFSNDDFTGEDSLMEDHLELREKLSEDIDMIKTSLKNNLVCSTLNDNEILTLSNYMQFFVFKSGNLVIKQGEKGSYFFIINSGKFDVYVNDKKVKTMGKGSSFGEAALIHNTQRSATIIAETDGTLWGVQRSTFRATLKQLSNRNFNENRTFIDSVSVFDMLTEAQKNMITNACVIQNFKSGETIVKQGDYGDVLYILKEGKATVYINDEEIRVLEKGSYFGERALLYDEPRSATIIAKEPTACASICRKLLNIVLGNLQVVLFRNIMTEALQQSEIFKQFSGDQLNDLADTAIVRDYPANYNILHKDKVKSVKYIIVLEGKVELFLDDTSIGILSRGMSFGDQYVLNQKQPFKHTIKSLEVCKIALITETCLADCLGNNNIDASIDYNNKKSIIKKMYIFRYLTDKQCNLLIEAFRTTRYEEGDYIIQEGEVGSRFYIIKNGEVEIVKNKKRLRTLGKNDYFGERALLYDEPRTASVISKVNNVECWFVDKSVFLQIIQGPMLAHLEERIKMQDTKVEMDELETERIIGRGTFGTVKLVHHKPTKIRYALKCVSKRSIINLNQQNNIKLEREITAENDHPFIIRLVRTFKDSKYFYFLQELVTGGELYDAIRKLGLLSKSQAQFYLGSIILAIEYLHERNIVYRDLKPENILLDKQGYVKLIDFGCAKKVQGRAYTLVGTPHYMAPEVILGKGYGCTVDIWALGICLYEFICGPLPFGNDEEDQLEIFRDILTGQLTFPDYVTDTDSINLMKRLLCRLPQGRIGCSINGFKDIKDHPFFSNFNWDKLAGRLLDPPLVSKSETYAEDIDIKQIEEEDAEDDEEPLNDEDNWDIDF
# UniProt Q13976, whole entry: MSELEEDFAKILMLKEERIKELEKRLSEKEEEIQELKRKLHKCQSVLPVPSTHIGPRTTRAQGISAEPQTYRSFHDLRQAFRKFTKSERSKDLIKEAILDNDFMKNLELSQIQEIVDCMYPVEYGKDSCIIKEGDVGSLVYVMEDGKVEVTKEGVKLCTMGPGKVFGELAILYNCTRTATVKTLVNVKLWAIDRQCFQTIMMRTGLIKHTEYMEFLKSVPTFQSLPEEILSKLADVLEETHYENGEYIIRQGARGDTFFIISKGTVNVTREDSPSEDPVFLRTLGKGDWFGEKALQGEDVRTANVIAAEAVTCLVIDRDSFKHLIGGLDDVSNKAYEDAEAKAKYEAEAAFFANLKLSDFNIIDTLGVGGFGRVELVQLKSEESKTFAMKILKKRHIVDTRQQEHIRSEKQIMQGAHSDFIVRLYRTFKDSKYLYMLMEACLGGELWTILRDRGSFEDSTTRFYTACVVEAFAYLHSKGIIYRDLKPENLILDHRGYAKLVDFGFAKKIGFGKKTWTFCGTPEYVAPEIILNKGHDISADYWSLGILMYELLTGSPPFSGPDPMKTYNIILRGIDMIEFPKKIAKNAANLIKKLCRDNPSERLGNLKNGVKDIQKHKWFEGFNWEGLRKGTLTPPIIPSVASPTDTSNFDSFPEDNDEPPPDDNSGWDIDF
# UniProt Q8I5A6, 1-1944: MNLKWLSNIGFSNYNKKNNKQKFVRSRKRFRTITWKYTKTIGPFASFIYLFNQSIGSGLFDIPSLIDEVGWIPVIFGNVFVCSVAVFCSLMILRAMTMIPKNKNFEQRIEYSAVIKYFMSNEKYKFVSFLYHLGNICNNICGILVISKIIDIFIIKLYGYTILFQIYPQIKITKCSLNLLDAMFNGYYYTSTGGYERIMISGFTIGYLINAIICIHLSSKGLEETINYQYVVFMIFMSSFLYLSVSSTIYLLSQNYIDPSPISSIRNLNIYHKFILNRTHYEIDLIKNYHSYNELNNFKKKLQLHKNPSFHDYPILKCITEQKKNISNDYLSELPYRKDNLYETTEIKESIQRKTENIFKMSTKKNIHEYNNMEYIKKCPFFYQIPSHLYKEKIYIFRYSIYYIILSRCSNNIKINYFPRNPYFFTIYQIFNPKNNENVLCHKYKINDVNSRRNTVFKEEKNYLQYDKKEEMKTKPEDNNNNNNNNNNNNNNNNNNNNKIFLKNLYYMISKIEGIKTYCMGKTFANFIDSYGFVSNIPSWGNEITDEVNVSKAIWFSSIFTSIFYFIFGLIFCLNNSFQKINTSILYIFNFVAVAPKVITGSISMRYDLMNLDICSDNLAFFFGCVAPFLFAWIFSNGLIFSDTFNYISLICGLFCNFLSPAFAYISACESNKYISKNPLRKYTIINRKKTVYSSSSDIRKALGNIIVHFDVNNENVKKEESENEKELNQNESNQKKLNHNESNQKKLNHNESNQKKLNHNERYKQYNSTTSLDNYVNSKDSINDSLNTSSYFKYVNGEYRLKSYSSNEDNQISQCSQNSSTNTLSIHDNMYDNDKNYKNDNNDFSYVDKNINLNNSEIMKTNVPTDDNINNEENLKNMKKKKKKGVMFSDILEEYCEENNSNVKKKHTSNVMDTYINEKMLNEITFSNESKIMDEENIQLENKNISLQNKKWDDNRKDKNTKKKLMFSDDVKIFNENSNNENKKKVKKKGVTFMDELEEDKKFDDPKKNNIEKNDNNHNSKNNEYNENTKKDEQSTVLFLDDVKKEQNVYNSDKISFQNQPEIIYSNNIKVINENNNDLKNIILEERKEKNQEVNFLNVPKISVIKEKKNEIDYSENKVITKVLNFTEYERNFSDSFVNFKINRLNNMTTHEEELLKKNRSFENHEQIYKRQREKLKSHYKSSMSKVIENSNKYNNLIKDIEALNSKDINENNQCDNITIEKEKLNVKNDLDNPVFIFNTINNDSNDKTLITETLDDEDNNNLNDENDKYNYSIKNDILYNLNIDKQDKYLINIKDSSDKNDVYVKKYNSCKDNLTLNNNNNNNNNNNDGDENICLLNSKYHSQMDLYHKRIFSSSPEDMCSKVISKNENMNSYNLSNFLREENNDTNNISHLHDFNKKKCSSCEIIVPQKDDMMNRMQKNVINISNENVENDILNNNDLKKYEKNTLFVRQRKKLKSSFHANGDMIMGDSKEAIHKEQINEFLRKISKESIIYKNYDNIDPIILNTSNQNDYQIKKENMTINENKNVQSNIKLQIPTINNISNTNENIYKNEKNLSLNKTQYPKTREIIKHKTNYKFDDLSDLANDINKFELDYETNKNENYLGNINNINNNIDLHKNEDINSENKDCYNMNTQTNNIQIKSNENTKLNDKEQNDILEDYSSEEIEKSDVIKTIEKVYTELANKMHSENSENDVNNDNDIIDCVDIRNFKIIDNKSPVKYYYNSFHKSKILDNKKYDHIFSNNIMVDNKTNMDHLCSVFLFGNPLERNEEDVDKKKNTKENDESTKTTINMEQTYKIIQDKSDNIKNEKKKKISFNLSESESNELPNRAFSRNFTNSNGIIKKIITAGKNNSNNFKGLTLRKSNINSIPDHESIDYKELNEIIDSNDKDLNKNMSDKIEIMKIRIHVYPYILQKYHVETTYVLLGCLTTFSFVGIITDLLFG
# Assays:
# WT PfPKG [1] = target: T1, WT PfPKG (Plasmodium falciparum, UniProt Q8I719); details: for LE: ligand efficiency; for LLE: lipophilic ligand efficiency
# TQ PfPKG (PfPKG_T618Q) = TQ PfPKG (PfPKG_T618Q) (Plasmodium falciparum, UniProt Q8I719, T618Q)
# HuPKGIα = HuPKGIα (Homo sapiens, UniProt Q13976); assay: Kinase Glo enzymatic assay, human PKG; type: biochemical
# WT PfPKG [2] = target: T1, WT PfPKG; details: read-out: WT PfPKG
# TQ P.falciparum = assay: Whole cell parasite growth inhibition assay, TQ parasites
# [3] = tested on: P. falciparum (NF54 isolate) female gametocytes; assay: Dual gamete activation assay, female (Pfs25 expression); details: read-out: female (gamete formation); female gametes, 48 h incubation
# P. falciparum clone 3D7A = assay: Whole cell parasite growth inhibition assay (LDH), WT parasites
# PKG (PF3D7_1436600) = PKG (PF3D7_1436600) (Plasmodium falciparum, UniProt Q8I719)
# PF3D7_1231400, PFL1515c = PF3D7_1231400, PFL1515c (Plasmodium falciparum, UniProt Q8I5A6)
# [4] = tested on: P. falciparum (NF54 isolate) male gametocytes; assay: Dual gamete activation assay, male (exflagellation); details: read-out: male (gamete formation); male gametes, 48 h incubation
# [5] = read-out: TQ PfPKG, gatekeeper mutant TQ PfPKG
# [6] = read-out: Hu PKGIα, human PKGIα
# [7] = read-out: TQ PfPKG, gatekeeper mutant TQ PfPKG, tested form: HCl
# [8] = read-out: Hu PKGIα, human PKGIα, tested form: HCl
# [9] = recombinant WT PfPKG, tested form: HCl
# [10] = 20 uM, relative to vehicle control
structure (smiles),measurement,setting,value
CNc1c(C(N)=O)c(-c2ccc3scnc3c2)nn1-c1cccc(F)c1,LE,WT PfPKG [1],0.34
same,LLE,WT PfPKG [1],3.5
same,IC50,TQ PfPKG (PfPKG_T618Q); [5],> 100000 nM
same,IC50,HuPKGIα; [6],> 100000 nM
same,IC50,WT PfPKG [2]; recombinant WT PfPKG,432 nM
CC(C)(C(=O)N1CCCC1)c1nc(-c2ccc(Cl)c(Cl)c2)c(-c2ccncc2)[nH]1,LE,WT PfPKG [1]; tested form: HCl,0.35
same,LLE,WT PfPKG [1]; tested form: HCl,3.5
same,IC50,TQ PfPKG (PfPKG_T618Q); [7],20400 nM
same,IC50,HuPKGIα; [8],> 100000 nM
same,IC50,WT PfPKG [2]; [9],50 nM
CC(C)(CN1CCCCC1)c1nc(-c2ccnc(N)n2)c(-c2ccc(Cl)c(O)c2)[nH]1,LE,WT PfPKG [1]; tested form: HCl,0.36
same,LLE,WT PfPKG [1]; tested form: HCl,4.3
same,IC50,TQ PfPKG (PfPKG_T618Q); [7],50100 nM
same,IC50,HuPKGIα; [8],> 100000 nM
same,IC50,WT PfPKG [2]; [9],14 nM
CC(C)(CN)c1nc(-c2ccc(Cl)c(Cl)c2)c(-c2ccncc2)[nH]1,LE,WT PfPKG [1]; tested form: HCl,0.46
same,LLE,WT PfPKG [1]; tested form: HCl,4.7
same,IC50,TQ PfPKG (PfPKG_T618Q); [7],18800 nM
same,IC50,HuPKGIα; [8],> 100000 nM
same,IC50,WT PfPKG [2]; [9],8 nM
CCn1nc(-c2ccc3cc(C(O)c4cccnc4)[nH]c3c2)c(C(N)=O)c1NC (stereo not shown),LE,WT PfPKG [1],0.34
same,LLE,WT PfPKG [1],7.1
same,IC50,TQ PfPKG (PfPKG_T618Q); [5],> 100000 nM
same,IC50,HuPKGIα; [6],> 100000 nM
same,IC50,WT PfPKG [2]; recombinant WT PfPKG,53 nM
COCCN1CCC(CNCC(C)(C)c2nc(-c3ccc(Cl)c(O)c3)c(-c3ccncc3)[nH]2)CC1,LE,WT PfPKG [1]; tested form: HCl,0.3
same,LLE,WT PfPKG [1]; tested form: HCl,4.5
same,IC50,TQ PfPKG (PfPKG_T618Q); [7],> 100000 nM
same,IC50,HuPKGIα; [8],> 100000 nM
same,IC50,WT PfPKG [2]; [9],20 nM
CC(CO)Nc1nccc(-c2c(-c3ccccc3)nn3c2COCC3)n1 (stereo not shown),LE,WT PfPKG [1],0.34
same,LLE,WT PfPKG [1],5.3
same,IC50,TQ PfPKG (PfPKG_T618Q); [5],> 100000 nM
same,IC50,HuPKGIα; [6],> 100000 nM
same,IC50,WT PfPKG [2]; recombinant WT PfPKG,363 nM
c1cncc(-c2n[nH]cc2-c2ccncc2)c1,LE,WT PfPKG [1],0.5
same,LLE,WT PfPKG [1],5.2
same,IC50,TQ PfPKG (PfPKG_T618Q); [5],> 100000 nM
same,IC50,HuPKGIα; [6],> 100000 nM
same,IC50,WT PfPKG [2]; recombinant WT PfPKG,733 nM
CCC(C)n1nc(-c2ccc(OCC(C)C)cc2)c(C(N)=O)c1NC (stereo not shown),LE,WT PfPKG [1],0.35
same,LLE,WT PfPKG [1],2.7
same,IC50,TQ PfPKG (PfPKG_T618Q); [5],> 100000 nM
same,IC50,HuPKGIα; [6],> 100000 nM
same,IC50,WT PfPKG [2]; recombinant WT PfPKG,457 nM
CC(C)(CNCc1nccs1)c1nc(-c2ccc(Cl)c(O)c2)c(-c2ccncc2)[nH]1,LE,WT PfPKG [1]; tested form: HCl,0.36
same,LLE,WT PfPKG [1]; tested form: HCl,5.0
same,IC50,TQ PfPKG (PfPKG_T618Q); [7],> 100000 nM
same,IC50,HuPKGIα; [8],> 100000 nM
same,IC50,WT PfPKG [2]; [9],11 nM
CC1(c2nc(-c3cccc(NS(=O)(=O)c4ccoc4)c3F)c(-c3ccnc(N)n3)s2)CCNCC1,EC50,"TQ P.falciparum; read-out: TQ P.falciparum 48h, 48h",> 5000 nM
same,EC50,"TQ P.falciparum; read-out: TQ P.falciparum 72h, 72h",> 5000 nM
same,EC50,[3],800 nM
same,EC50,"P. falciparum clone 3D7A; read-out: WT P.falciparum 48h, 48h",188 nM
same,EC50,"P. falciparum clone 3D7A; read-out: WT P.falciparum 72h, 72h",167 nM
same,EC50,"P. falciparum clone 3D7A; read-out: whole cell 48 h, Table 2, 48 h",190 nM
same,EC50,"P. falciparum clone 3D7A; read-out: whole cell 72 h, Table 2, 72 h",170 nM
same,IC50,"TQ PfPKG (PfPKG_T618Q); read-out: PfPKG_T618Q, Table 2, gatekeeper mutant",500 nM
same,IC50,"HuPKGIα; read-out: human PKG, Table 2",> 1000 nM
same,IC50,WT PfPKG [2]; Supplementary Table 2,0.81 nM
same,IC50,WT PfPKG [2]; Table 2,0.8 nM
same,"relative abundance, compound competition 0.08 uM",PKG (PF3D7_1436600); 0.08 uM,0.02
same,"relative abundance, compound competition 0.74 uM",PKG (PF3D7_1436600); 0.74 uM,0.013
same,"relative abundance, compound competition 2.22 uM",PKG (PF3D7_1436600); 2.22 uM,0.0114
same,"relative abundance, compound competition 6.67 uM",PKG (PF3D7_1436600); 6.67 uM,0.0126
same,"relative abundance, compound competition 20 uM",PKG (PF3D7_1436600); [10],0.0137
same,"relative abundance, compound competition 0.25 uM",PKG (PF3D7_1436600); […],0.0123
same,"relative abundance, compound competition 0.08 uM","PF3D7_1231400, PFL1515c; 0.08 uM",0.0426
same,"relative abundance, compound competition 0.74 uM","PF3D7_1231400, PFL1515c; 0.74 uM",0.019
same,"relative abundance, compound competition 2.22 uM","PF3D7_1231400, PFL1515c; 2.22 uM",0.0163
same,"relative abundance, compound competition 6.67 uM","PF3D7_1231400, PFL1515c; 6.67 uM",0.00655
same,"relative abundance, compound competition 20 uM","PF3D7_1231400, PFL1515c; [10]",0.0139
same,"relative abundance, compound competition 0.25 uM","PF3D7_1231400, PFL1515c; […]",0.0157
same,EC50,[4],500 nM
O=C(O)c1ccc(-c2nc(-c3cccc(O)c3)c(-c3ccncc3)[nH]2)cc1,LE,WT PfPKG [1],0.37
same,LLE,WT PfPKG [1],3.6
same,IC50,TQ PfPKG (PfPKG_T618Q); [5],> 100000 nM
same,IC50,HuPKGIα; [6],> 100000 nM
same,IC50,WT PfPKG [2]; recombinant WT PfPKG,51 nM
COc1ccc(-c2n[nH]cc2-c2ccncn2)cc1,LE,WT PfPKG [1],0.47
same,LLE,WT PfPKG [1],5.0
same,IC50,TQ PfPKG (PfPKG_T618Q); [5],> 100000 nM
same,IC50,HuPKGIα; [6],> 100000 nM
same,IC50,WT PfPKG [2]; recombinant WT PfPKG,272 nM
CC(=O)NCC(C)(C)c1nc(-c2ccc(Cl)c(O)c2)c(-c2ccncc2)[nH]1,LE,WT PfPKG [1]; tested form: HCl,0.44
same,LLE,WT PfPKG [1]; tested form: HCl,7.0
same,IC50,TQ PfPKG (PfPKG_T618Q); [7],> 100000 nM
same,IC50,HuPKGIα; [8],> 100000 nM
same,IC50,WT PfPKG [2]; [9],1.84 nM
CC(C)(CNS(C)(=O)=O)c1nc(-c2ccc(Cl)c(O)c2)c(-c2ccncc2)[nH]1,LE,WT PfPKG [1]; tested form: HCl,0.4
same,LLE,WT PfPKG [1]; tested form: HCl,6.1
same,IC50,TQ PfPKG (PfPKG_T618Q); [7],> 100000 nM
same,IC50,HuPKGIα; [8],> 100000 nM
same,IC50,WT PfPKG [2]; [9],8.51 nM
NC(=O)c1c(-c2ccc3c(c2)OCO3)nn(-c2ccc(F)cc2F)c1N,LE,WT PfPKG [1]; tested form: TFA,0.34
same,LLE,WT PfPKG [1]; tested form: TFA,3.9
same,IC50,"TQ PfPKG (PfPKG_T618Q); read-out: TQ PfPKG, gatekeeper mutant TQ PfPKG, tested form: TFA",> 100000 nM
same,IC50,"HuPKGIα; read-out: Hu PKGIα, human PKGIα, tested form: TFA",> 100000 nM
same,IC50,"WT PfPKG [2]; recombinant WT PfPKG, tested form: TFA",398 nM
CC(C)CNc1[nH]nc(-c2ccc3scnc3c2)c1C(N)=O,LE,WT PfPKG [1],0.4
same,LLE,WT PfPKG [1],3.4
same,IC50,TQ PfPKG (PfPKG_T618Q); [5],> 100000 nM
same,IC50,HuPKGIα; [6],> 100000 nM
same,IC50,WT PfPKG [2]; recombinant WT PfPKG,417 nM
Nc1nccc(-c2[nH]c(C3CCOCC3)nc2-c2cccc(NS(=O)(=O)c3ccoc3)c2F)n1,LE,WT PfPKG [1],0.34
same,LLE,WT PfPKG [1],7.3
same,IC50,TQ PfPKG (PfPKG_T618Q); [5],22600 nM
same,IC50,HuPKGIα; [6],> 100000 nM
same,IC50,WT PfPKG [2]; recombinant WT PfPKG,5 nM

# Where two headings read alike, the source gives them in different places.
